Anti-infective test results gathered from many reports (values: NIAID ChemDB through PubChem).

Common to all: enzyme or target tests; organism: Hepatitis C virus; target: Nonstructural protein 3 protease

Percent inhibition refers to the dose given; in toxicity tests it is the harm to the cells. An empty or dashed field is not shown. ICn is the concentration giving n% inhibition. Neighbouring rows are from separate reports.

structure	strain or isolate	read by	endpoint	dose	value
CC(C)[C@H](NC(=O)OC(C)(C)C)C(=O)N1CC[C@H]2[C@H]1[C@H](C)C(=O)N2C(=O)C1CC1	-	-	IC50	-	97 µM
CCCCCCCCCCCCCC1=C(O)C(=O)C=C(OC)C1=O	-	-	IC50	-	46 µM
CC(C)[C@H](NC(=O)OC(C)(C)C)C(=O)N1CC[C@H]2[C@H]1C(C1CCC1)C(=O)N2S(C)(=O)=O	-	-	IC50	-	4.4 µM
O=C(CSc1nc(-c2cccs2)c2c(n1)-c1ccccc1CC2)NN1C(=O)c2ccccc2C1=O	NS3-4A	PCR	IC50	-	0.145 µM
CC[C@@H]1C(=O)N(C(=O)C2CC2)[C@H]2CCN(C(=O)[C@@H](NC(=O)OC(C)(C)C)C(C)C)[C@H]12	-	-	IC50	-	8.9 µM
CC(C)[C@H](NC(=O)OC(C)(C)C)C(=O)N1CC[C@H]2[C@H]1C(C)(C)C(=O)N2C(=O)C1CC1	-	-	IC50	-	3 µM
CC[C@@H]1C[C@]1(NC(=O)[C@@H]1C[C@@H](Oc2cc(-c3csc(NC(C)C)n3)nc3c(Cl)c(OCCN4CCOCC4)ccc23)CN1C(=O)[C@@H](NC(=O)OC1C[C@@H]2C[C@@H]2C1)C(C)(C)C)C(=O)O	JFH-1 (gt 2a)	fluorescence	Ki	-	0.039 µM
CCC[C@H](NC(=O)[C@@H]1C2CCCC2CN1C(=O)[C@@H](NC(=O)[C@@H](NC(=O)c1cnccn1)C1CCCCC1)C(C)(C)C)C(=O)C(=O)N[C@@H](C)c1ccncc1	-	-	Ki	-	0.053 µM
O=C(OC1COC(=O)c2cc(O)c(O)c(O)c2-c2c(cc(O)c(O)c2O)C(=O)OC1C1OC(=O)c2cc(O)c(O)c(O)c2-c2c(O)c(O)c(O)c3c2C(=O)OC1C3O)c1cc(O)c(O)c(O)c1	-	fluorescence	IC50	-	9.6 µM
CCC[C@H](NC(=O)[C@@H]1[C@H]2CCC[C@H]2CN1C(=O)[C@@H](NC(=O)[C@@H](NC(=O)c1cnccn1)C1CCCC1)C(C)(C)C)C(=O)C(=O)NC1CC1	-	-	Ki	-	0.04 µM
CC(=O)N1C(=S)NC2=C(CCc3ccccc32)C1c1cccs1	NS3-4A	PCR	IC90	-	1.89 µM
CC(C)[C@H](NC(=O)OC(C)(C)C)C(=O)N1CC[C@H]2[C@H]1C1(CCC1)C(=O)N2C(=O)C1CC1	-	-	IC50	-	0.51 µM
CCC[C@H](NC(=O)[C@@H]1[C@H]2CCC[C@H]2CN1C(=O)[C@@H](NC(=O)[C@@H](NC(=O)c1cnccn1)C1CCCCC1)C(C)(C)C)C(=O)C(=O)N[C@@H](C)Cc1ccc(C)cc1	-	-	Ki	-	0.136 µM
CCCC(NC(=O)[C@@H]1C2CCC(C2)N1C(=O)[C@@H](NC(=O)OC(C)(C)C)C1CCCCC1)C(=O)C(=O)NCC(=O)N[C@H](C(=O)N(C)C)c1ccccc1	-	-	Ki	-	0.09 µM
O=C(O[C@@H]1O[C@@H]2COC(=O)c3cc(O)c(O)c(O)c3-c3c(cc(O)c(O)c3O)C(=O)O[C@H]([C@H]1O)[C@@H]2O)c1cc(O)c(O)c(O)c1	-	fluorescence	IC50	-	31.5 µM
CC(C)[C@H](NC(=O)OC(C)(C)C)C(=O)N1CC[C@H]2[C@H]1C(C1CCCC1)C(=O)N2C(=O)C1CC1	-	-	IC50	-	2.5 µM
CCC[C@H](NC(=O)[C@@H]1[C@H]2CCC[C@H]2CN1C(=O)[C@@H](NC(=O)[C@@H](NC(=O)c1cnccn1)C1CCCCC1)C(C)(C)C)C(=O)C(=O)N[C@@H](C)C1CCCCC1	-	-	Ki	-	2.7 µM
O=C(O)CC(C(=O)O)C1c2c(cc(O)c(O)c2O)C(=O)CC1C(=O)O[C@H]1[C@H](O)[C@@H](O)[C@H](OC(=O)c2cc(O)c(O)c(O)c2)O[C@@H]1CO	-	fluorescence	IC50	-	67.2 µM
O=c1c(O[C@@H]2O[C@H](CO)[C@@H](O)[C@H](O)[C@H]2O)c(-c2ccc(O)c(O)c2)oc2cc(O)cc(O)c12	-	-	inhibition	100 µM	53.8%
CCC[C@H](NC(=O)[C@@H]1C2CCCC2CN1C(=O)[C@@H](NC(=O)[C@@H](NC(=O)c1cnccn1)C(C)CC)C(C)(C)C)C(=O)C(=O)NC1CC1	-	-	Ki	-	0.18 µM
CCCC(NC(=O)[C@@H]1C2CCCC2CN1C(=O)[C@@H](NC(=O)[C@@H](NC(=O)c1cnccn1)[C@@H](C)CC)C(C)(C)C)C(=O)C(=O)NC1CC1	-	-	Ki	-	0.089 µM
CC[C@@H]1C(=O)N(S(C)(=O)=O)[C@H]2CCN(C(=O)[C@@H](NC(=O)OC(C)(C)C)C(C)C)[C@H]12	-	-	IC50	-	30 µM